We go through 2 molecules from paper PMC11407943, “Cdc14 phosphatases use an intramolecular pseudosubstrate motif to stimulate and regulate catalysis” (The Journal of Biological Chemistry, 2024).

This data set has as its system C. albicans strains. The experiment in a line: Immunoblotting of Cdc14-3xHA expression level.

B1: CaCdc14^S411A: C. albicans Cdc14 with Ala substitution in the Cdk site, strain HCAL133 (protein, UniProt Q59NH8 1-542, looked up, variant S411A)
Tyrosine-protein phosphatase …: MHSSSVHVPLIEFLKNRIYLGAYDHHKRDTEDLAYFTVEDALPYNAFYMDFGPLNIGHLYRFAVLLHKKLNEDSTQGKGLVIYSSTSPKERANLACLLCCYMILLQNWAPHQVLQPIAQITPPLQAFRDAGYSSADYEITIQDVVYAMWRAKERGMIDLAKFDLDEYEQYERVDQGDFNVISKDFIAFASPQQSKRGGLNEPFQKVLEYFVENNVQLVVRLNSHLYDAKEFTKRNIKHIDMIFDDGTCPTLEYVQKFIGAAECIINKGGKIAVHCKAGLGRTGCLIGAHLIYTHGFTANECIAYMRMIRPGMVVGPQQHWLYLHHDDFRSWRHTMIVDNRPDPLIGNLFPLCSYEDYKQRLKEAKRKERLQLQQQLTSPLADSSVINTPIRRRKVSGALASKIQTVVPIEAPGQPRKYFEDSEDIDEVEMVNNSDDENTMQDIIQSSPARYDSVTPKTKDNSDWRVLRSISTNNVSSQQSIHIIKTTTTKTVNETLSSPPGTSPTNVLRVSKARSKNRIASGNSQTSRAHSGGVRKLSGKKH
modifications: 3xHA tag
Take B1: the “protein expression level compared to WT CaCdc14, CaCdc14^S411E and CaCdc14^hm” value (log phase YPD cultures, anti-HA immunoblot normalized to PSTAIR, three independent experiments, not statistically significant) is given as “consistently lower”.

B2: Cdc14: Cdc14 in micafungin-resistant C. albicans cdc14^S411A and cdc14^S411E colonies (protein, UniProt Q59NH8 1-542, looked up)
Tyrosine-protein phosphatase …: MHSSSVHVPLIEFLKNRIYLGAYDHHKRDTEDLAYFTVEDALPYNAFYMDFGPLNIGHLYRFAVLLHKKLNEDSTQGKGLVIYSSTSPKERANLACLLCCYMILLQNWAPHQVLQPIAQITPPLQAFRDAGYSSADYEITIQDVVYAMWRAKERGMIDLAKFDLDEYEQYERVDQGDFNVISKDFIAFASPQQSKRGGLNEPFQKVLEYFVENNVQLVVRLNSHLYDAKEFTKRNIKHIDMIFDDGTCPTLEYVQKFIGAAECIINKGGKIAVHCKAGLGRTGCLIGAHLIYTHGFTANECIAYMRMIRPGMVVGPQQHWLYLHHDDFRSWRHTMIVDNRPDPLIGNLFPLCSYEDYKQRLKEAKRKERLQLQQQLTSPLADSSVINTPIRRRKVSGALASKIQTVVPIESPGQPRKYFEDSEDIDEVEMVNNSDDENTMQDIIQSSPARYDSVTPKTKDNSDWRVLRSISTNNVSSQQSIHIIKTTTTKTVNETLSSPPGTSPTNVLRVSKARSKNRIASGNSQTSRAHSGGVRKLSGKKH
modifications: 3xHA tag
Take B2: under “relative to the original micafungin-sensitive isolates”, the “Cdc14 expression level in micafungin-resistant strains” value was “consistent and significant increase”.
